Among the data in patent publication US20030134799A1 are % inhibition of Gly enhanced [3H]MK-801 binding, % inhibition of the maximum stimulation by spermine and % reduction of Gly-stimulated [3H]MK-801 binding values, retold here.

In this assay the target is NMDA receptor of well-washed rat forebrain membranes (rat) (UniProt Q9R1M7). Nature of the assay: cell-based or functional assay.

Consider Conantokin-G (peptide), for which the % inhibition of Gly enhanced [3H]MK-801 binding at 10 µM Con-G was 15%.

Ala7-Con-G (peptide): the % inhibition of the maximum stimulation by spermine at 10 nM peptide came to 50% and the % reduction of Gly-stimulated [3H]MK-801 binding at 30 nM peptide came to 20%.
